Results of unrelated studies side by side (data: NIAID ChemDB).

All rows: growth or infection tests; agent: Aspergillus fumigatus

Blank or dashed fields: not listed here. a–b is a range or a potency band. A number after MIC or MFC names an inhibition level or a share of isolates. ECn: concentration that inhibits the pathogen or its effect by n%. Rows are shuffled and stem from different studies.

compound | strain | read by | measure | value
CN[C@@H]1[C@H](O[C@@H]2OC[C@@H](O)[C@H](O)[C@H]2O)[C@@H](O)[C@H](O[C@H]2c3cc(C)c(C(=O)N[C@H](C)C(=O)O)c(O)c3-c3c(cc4c(c3O)C(=O)c3cc(OC)cc(O)c3C4=O)[C@@H]2O)O[C@@H]1C | IAM2530 |  | MIC | 1.6 µg/mL
CCCCCCCCCC(=O)NC(CCCN)C(=O)NC(CCCN)C(=O)NC(CCCN)C(=O)NC(CCCN)C(=O)NC(CCCN)C(N)=O | ATCC 42203 | broth dilution | MIC | 50 µg/mL
COc1cc2c(=O)c3ccccc3oc2cc1O | CBS 113.26 |  | MIC80 | 16 µg/mL
Oc1ccc(C(=S)Nc2ccccc2F)c(O)c1 |  |  | MIC | 125 µg/mL
CCCCCOc1ccc(-c2cc(-c3ccc(C(=O)N[C@H]4C[C@@H](O)[C@@H](O)NC(=O)[C@@H]5[C@@H](O)[C@@H](C)CN5C(=O)[C@H]([C@H](O)CC(N)=O)NC(=O)[C@H]([C@H](O)[C@@H](O)c5ccc(O)c(OS(=O)(=O)O)c5)NC(=O)[C@@H]5C[C@@H](O)CN5C(=O)[C@H]([C@@H](C)O)NC4=O)cc3)no2)cc1 | 25 isolates |  | MIC50 | 0.03 µg/mL
CS(=O)(=O)C(F)(F)C(O)(Cn1cncn1)c1ccc(F)cc1F | IFM 40808 |  | MIC | 8 µg/mL
CCC(C)CC(C)CCCCCCCCC(=O)N[C@H]1C[C@@H](O)[C@H](NCCN)NC(=O)[C@@H]2[C@@H](O)CCN2C(=O)[C@H]([C@H](O)CCN)NC(=O)[C@H]([C@H](O)[C@@H](O)c2ccc(O)cc2)NC(=O)[C@@H]2C[C@@H](O)CN2C(=O)[C@H]([C@@H](C)O)NC1=O | 62 isolates |  | MIC90 | 0.5 µg/mL
C[C@H]1[C@H](O)[C@@H](C)/C=C/C=C/C=C/C=C/C=C/C=C/C=C/[C@H](O[C@@H]2O[C@H](C)[C@@H](O)[C@H](N)[C@@H]2O)C[C@@H]2O[C@](O)(C[C@@H](O)C[C@@H](O)CC[C@H](O)[C@@H](O)C[C@@H](O)CC(=O)O[C@H]1C)C[C@H](O)[C@H]2C(=O)O | Clinical isolate | XTT | MIC | 1–2 µg/mL
Cc1ccc(CSc2cc(C(N)=S)ccn2)cc1 | 231 |  | MIC | 250 µM
NC(=O)N/N=C/c1ccsc1/C=N/NC(N)=O | CBS 113.26 | turbidity / absorbance | MIC80 | >250 µg/mL
COc1ccc(NC(=S)c2ccc(O)cc2O)cc1 |  |  | MIC | 500 µg/mL
CCCCCCCC(=O)NC(CCCN)C(=O)NC(CCCN)C(=O)NC(CCCN)C(=O)NC(CCCN)C(=O)NC(CCCN)C(N)=O | ATCC 42203 | broth dilution | MIC | >100 µg/mL
C[C@@H](c1ncncc1F)[C@](O)(Cn1cncn1)c1ccc(F)cc1F | 62 isolates |  | MIC50 | 0.25 µg/mL
COc1c(O)ccc2oc3ccccc3c(=O)c12 | CBS 113.26 |  | MIC80 | 31 µg/mL
CCC(C)CC(C)CCCCCCCCC(=O)N[C@H]1C[C@@H](O)[C@H](NCCN)NC(=O)[C@@H]2[C@@H](O)CCN2C(=O)[C@H]([C@H](O)CCN)NC(=O)[C@H]([C@H](O)[C@@H](O)c2ccc(O)cc2)NC(=O)[C@@H]2C[C@@H](O)CN2C(=O)[C@H]([C@@H](C)O)NC1=O | 25 isolates |  | MIC90 | 0.5 µg/mL
Cc1ccc(C(C)C)cc1O | CECT2071 |  | MLC | 0.32 µg/mL
CN(c1ccc(Cl)cc1)c1cc2ccccc2[n+](C)c1.[I-] | ATCC 90906 | resazurin | EC50 | >20 µg/mL
C[C@@H](c1ncncc1F)[C@](O)(Cn1cncn1)c1ccc(F)cc1F | 35 isolates |  | MIC50 | 0.5 µg/mL
CS(=O)(=O)CC(O)(Cn1cncn1)c1ccc(F)cc1F | IFM 40808 |  | MIC | >64 µg/mL
CCCc1c(C(c2ccccc2)n2ccnc2)cnn1-c1ccccc1 |  |  | MIC | >200 µM
COc1ccccc1NC(=S)c1ccc(O)cc1O |  |  | MIC | 125 µg/mL
Cc1c(C(c2ccccc2)n2ccnc2)cnn1-c1ccccc1 |  |  | MIC | >200 µM
Oc1ccc(C(=S)Nc2ccccc2)c(O)c1 |  |  | MIC | 125 µg/mL
COc1c(O)cc2oc3c(O)cccc3c(=O)c2c1O | CBS 113.26 |  | MIC80 | 31 µg/mL
Cc1cccc(CSc2cc(C(N)=S)ccn2)c1 | 231 |  | MIC | 125 µM
C[n+]1cccc(Nc2ccccc2)c1.[I-] | ATCC 90906 | resazurin | EC50 | >20 µg/mL
C[C@H]1[C@H](O)[C@@H](C)/C=C/C=C/C=C/C=C/C=C/C=C/C=C/[C@H](O[C@@H]2O[C@H](C)[C@@H](O)[C@H](N)[C@@H]2O)C[C@@H]2O[C@](O)(C[C@@H](O)C[C@@H](O)CC[C@H](O)[C@@H](O)C[C@@H](O)CC(=O)O[C@H]1C)C[C@H](O)[C@H]2C(=O)O | 3 isolates |  | Geometric mean MIC | 0.47 µg/mL
O=C(N/N=C/c1cc([N+](=O)[O-])ccc1O)c1ccc(I)cc1 | 293 |  | MIC | 0.4 µg/mL
C[C@@H](c1ncncc1F)[C@](O)(Cn1cncn1)c1ccc(F)cc1F |  |  | MIC50 | 0.2 µg/mL
CN(c1ccccc1)c1cc2ccccc2[n+](C)c1.[I-] | ATCC 90906 | resazurin | EC50 | >20 µg/mL
C[C@@H]1CCC2(OC1)OC1CC3C4C[C@H](OC5O[C@@H](CO)[C@H](O)[C@@H](O)[C@@H]5O)[C@H]5C[C@@H](OC6O[C@H](CO)[C@@H](O)[C@H](O)[C@H]6O)CC[C@]5(C)C4CC[C@]3(C)C1[C@@H]2C | ATCC 90906 |  | MIC | >20 µg/mL
CC(C)c1c(C(c2ccccc2)n2cncn2)cnn1-c1ccccc1 |  |  | MIC | >200 µM
C[n+]1c2ccc(Cl)cc2cc2c1c1ccccc1n2CCCCCC1CCCCC1.[I-] | ATCC 90906 | resazurin | EC50 | 0.8 µg/mL
CCC(C)n1ncn(-c2ccc(N3CCN(c4ccc(OC[C@H]5CO[C@](Cn6cncn6)(c6ccc(Cl)cc6Cl)O5)cc4)CC3)cc2)c1=O | 25 isolates |  | MIC90 | 2 µg/mL
C[C@H]1[C@H](O)[C@@H](C)/C=C/C=C/C=C/C=C/C=C/C=C/C=C/[C@H](O[C@@H]2O[C@H](C)[C@@H](O)[C@H](N)[C@@H]2O)C[C@@H]2O[C@](O)(C[C@@H](O)C[C@@H](O)CC[C@H](O)[C@@H](O)C[C@@H](O)CC(=O)O[C@H]1C)C[C@H](O)[C@H]2C(=O)O | 35 isolates |  | MIC90 | 2 µg/mL
CCc1c(C(c2ccccc2)n2cncn2)cnn1-c1ccccc1 |  |  | MIC | >200 µM
Oc1ccc(C(=S)Nc2ccc(I)cc2)c(O)c1 |  |  | MIC | 62.5 µg/mL
C[C@@H]1[C@H](O)[C@@H](C)/C=C/C=C/C=C/C=C/C=C/C=C/C=C/[C@H](O[C@@H]2O[C@H](C)[C@@H](O)[C@H](N)[C@@H]2O)C[C@@H]2O[C@](O)(C[C@@H](O)C[C@@H](O)[C@H](O)CC[C@@H](O)C[C@@H](O)CC(=O)O[C@H]1C)C[C@H](O)[C@H]2C(=O)O | CBS 113.26 | turbidity / absorbance | MIC80 | 6 µg/mL
NC(=S)c1ccnc(SCc2cccc(Cl)c2)c1 | 231 |  | MIC | 62.5 µM
CCCCCCCCCCCCCC(=O)NC(CCCN)C(=O)NC(CCCN)C(=O)NC(CCCN)C(N)=O | ATCC 42203 | broth dilution | MIC | 3.1 µg/mL
Oc1ccc(C(=S)Nc2ccc(F)cc2)c(O)c1 |  |  | MIC | 125 µg/mL
CCCCCS(=O)(=O)C(F)(F)[C@](O)(Cn1cncn1)c1ccc(F)cc1F | IFM 40808 |  | MIC | 8 µg/mL
C[n+]1cccc(N(CCCCCC2CCCCC2)c2ccccc2C#N)c1.[I-] | ATCC 90906 | resazurin | EC50 | >20 µg/mL
Oc1ccc(C(=S)Nc2cccc(Cl)c2Cl)c(O)c1 |  |  | MIC | 31.25 µg/mL
CC(=O)N1CCN(c2ccc(OC[C@H]3CO[C@](Cn4ccnc4)(c4ccc(Cl)cc4Cl)O3)cc2)CC1 | 25 isolates |  | MIC50 | 4 µg/mL
NC(=S)c1ccnc(SCc2ccccc2)c1 | 231 |  | MIC | >500 µM
C[C@H]1[C@H](O)[C@@H](C)/C=C/C=C/C=C/C=C/C=C/C=C/C=C/[C@H](O[C@@H]2O[C@H](C)[C@@H](O)[C@H](N)[C@@H]2O)C[C@@H]2O[C@](O)(C[C@@H](O)C[C@@H](O)CC[C@H](O)[C@@H](O)C[C@@H](O)CC(=O)O[C@H]1C)C[C@H](O)[C@H]2C(=O)O | 25 isolates |  | MIC90 | 4 µg/mL
NC(=S)c1ccnc(SCc2ccccc2F)c1 | 231 |  | MIC | >500 µM

Repeating the first 2 entries:

{"compound": "CN[C@@H]1[C@H](O[C@@H]2OC[C@@H](O)[C@H](O)[C@H]2O)[C@@H](O)[C@H](O[C@H]2c3cc(C)c(C(=O)N[C@H](C)C(=O)O)c(O)c3-c3c(cc4c(c3O)C(=O)c3cc(OC)cc(O)c3C4=O)[C@@H]2O)O[C@@H]1C", "strain": "IAM2530", "measure": "MIC", "value": "1.6 µg/mL"}
{"compound": "CCCCCCCCCC(=O)NC(CCCN)C(=O)NC(CCCN)C(=O)NC(CCCN)C(=O)NC(CCCN)C(=O)NC(CCCN)C(N)=O", "strain": "ATCC 42203", "read by": "broth dilution", "measure": "MIC", "value": "50 µg/mL"}